Results deposited as PubChem BioAssay AID1259414 (Drosophila RNAi Screening Center, 2018)
In all, the deposit lists about 24,000 reagents; this is an unselected part of those that have a named target and a result. In the full data, about 1,210 (5%) were called active. 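Inactive calls also include excluded dsRNAs with several or no targets, genes unexpressed in JW18, and well A1, regardless of score.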 A number with no mark means an inactive call. Names joined by + are all predicted targets of the reagent. No sequences are given here.

Test: 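Host factors increasing or decreasing Wolbachia levels in cultured fly cells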 (primary screen)
Cell system: Drosophila JW18 cells infected with Wolbachia
Reagents: long dsRNA against Drosophila genes, 0.25 µg dsRNA per well of a 384-well plate
Timing: 5 days
Treatment: cells persistently infected with Wolbachia before knock-down; no added drug
Detection: 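Automated imaging of bacterial rRNA staining divided by host cell count, reported as plate-normalised robust z-score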
Scale: Wolbachia per cell robust z: higher = more Wolbachia per host cell than the plate typical
Hit rule: 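Hit when robust z is 1.5 or more, or -1.5 or less, in at least two of three replicates; excludes dsRNAs with several or no targets, genes not expressed in JW18 and well A1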

gene | DRSC id | Wolbachia per cell robust z, rep 1 | Wolbachia per cell robust z, rep 2 | Wolbachia per cell robust z, rep 3
Haspin | DRSC37736 | 0.912 | 1.18 | 0.72
Haspin | DRSC41450 | -0.0184 | -0.174 | -0.147
mesh | DRSC14472 | 0.693 | 0.317 | 0.557
mesh | DRSC15098 | -5.6 | -0.43 | 0.325
mesh | DRSC15099 | 0.254 | 0.335 | 0.105
asRNA:CR43476 + CG42534 | DRSC23246 | -0.674 | -1.34 | -0.109
CG4911 | DRSC10456 | -0.614 | 0.376 | 0.303
CG31141 | DRSC13646 | 0.011 | -0.858 | -3.22
CG31141 | DRSC29508 | -0.372 | 0.769 | 0.949
Gclc (Glutamate-cysteine ligase catalytic subunit) | DRSC18666 | 0.0689 | 1.66 | 0.714
CG16825 | DRSC02526 | -1.15 | 0.0339 | -0.0917
CG11858 | DRSC14412 | -3.33 (active) | -2.66 | -3.75
CG11858 | DRSC29222 | -0.421 | 0.31 | -1.05
chinmo (Chronologically inappropriate morphogenesis) | DRSC00485 | -0.471 | 0.598 | -0.416
chinmo (Chronologically inappropriate morphogenesis) | DRSC00509 | 0.0708 | -0.244 | 0.48
chinmo (Chronologically inappropriate morphogenesis) | DRSC22413 | -0.219 | 0.409 | -0.11
chinmo (Chronologically inappropriate morphogenesis) | DRSC28547 | 1.45 | -8.9 | 0.659
PpY-55A (Protein phosphatase Y at 55A) | DRSC07513 | 1.19 | 0.675 | 0.393
PpY-55A (Protein phosphatase Y at 55A) | DRSC23328 | 0.66 | 0.0974 | 0.0385
PpY-55A (Protein phosphatase Y at 55A) | DRSC26547 | -1.86 | -0.517 | -0.294
CG4049 | DRSC04443 | -0.00549 | -0.316 | -0.638
CG4049 | DRSC29138 | -0.0787 | 1.08 | 0.193
Las (Lipoic acid synthase) | DRSC11772 | 0.185 | 0.346 | 0.363
Las (Lipoic acid synthase) | DRSC26539 | -0.345 | -0.369 | -0.644
CG4975 + CG4984 | DRSC06907 | 0.381 | 0.721 | 0.308
CG4975 + CG4984 | DRSC24817 | -1.88 | -1.07 | 0.195

Reprinted from above (4 entries):
gene | DRSC id | Wolbachia per cell robust z, rep 1 | Wolbachia per cell robust z, rep 2 | Wolbachia per cell robust z, rep 3
CG31141 | DRSC13646 | 0.011 | -0.858 | -3.22
CG31141 | DRSC29508 | -0.372 | 0.769 | 0.949
Gclc (Glutamate-cysteine ligase catalytic subunit) | DRSC18666 | 0.0689 | 1.66 | 0.714
CG16825 | DRSC02526 | -1.15 | 0.0339 | -0.0917

Further entries follow:
gene | DRSC id | Wolbachia per cell robust z, rep 1 | Wolbachia per cell robust z, rep 2 | Wolbachia per cell robust z, rep 3
Snp + CG44249 | DRSC04524 | -0.0573 | -1.6 | 0.337
CG2246 | DRSC15433 | -1.6 | -1.09 | -0.77
IKKepsilon (I-kappaB kinase epsilon) | DRSC03550 | -8.32 | -1.22 | 1.08
vn (vein) | DRSC23221 | 0.597 | 1.41 | 0.0929
vn (vein) | DRSC26550 | -2.16 (active) | -0.754 | -1.63
vn (vein) | DRSC40742 | 0.16 | -0.025 | -0.0966
sisA | DRSC20374 | 0.164 | 0.777 | -4.75
sisA | DRSC29331 | 0.194 | -2.21 | -5.87
zuc (zucchini) | DRSC02160 | 0.943 | -0.324 | -0.402
CG13144 | DRSC02241 | -5.05 | -0.793 | 0.136
Gr59b (Gustatory receptor 59b) | DRSC04179 | 0.689 | 0.33 | 0.792
CG31784 | DRSC01574 | 0.24 | 0.101 | -0.494
lncRNA:CR41443 (long non-coding RNA:CR41443) | DRSC38747 | 0.827 | 1.58 | 1.83
kat80 (katanin 80) | DRSC20344 | 0.591 | 1.31 | 0.758
kat80 (katanin 80) | DRSC20345 | 0.341 | -0.942 | -0.0497
CG33322 | DRSC03204 | -0.424 | -0.344 | -0.332
Bre1 | DRSC09742 | 1.06 | 1.15 | 0.702
Abca3 (ATP binding cassette subfamily A member 3) | DRSC20546 | -0.896 | 0.428 | 0.66
Ran-like | DRSC10918 | -0.145 | -7.82 | 1.05
beat-Ia (beaten path Ia) | DRSC03489 | 0.475 | -0.827 | -5.37
beat-Ia (beaten path Ia) | DRSC25576 | 1.06 | 0.633 | 2.25
